Source: paper PMC7217864, “Legionella effector MavC targets the Ube2N~Ub conjugate for noncanonical ubiquitination” (Nature Communications, 2020)
Where two headings read alike, the source gives them in different places.

B1: C74A-MavC_(1–384) (domain or fragment)
chain: MTTSKLEKTGLHVHEKIKHMVKNYGTMITGIPAEILGQNEAEISVGYVKKMGNMKENIAEVVRKSEMTQPTNSAGKASNEVCDLLLGTEGASEFEKSSYQVLSGDGSNLKGSLPNKNLLVRVEMDRFNAPQKYQKIKREEFNPETAEKNKIYLLEDQLVYLDIFGKVIDLGQTSDTCHRLFNAITTPFYQNYILYDEYIDPEESAEEAAMFEMGEIVKAKMKNIDCWTATHSFTIFVPESDSEDTRTLYPYQAYWTSHTLQQWFSGDKDEKLSRLGIDGYIEKLALLGTTTDSKIRSSIYGELFSPPGKEHVFCTGMNEKFSPLRVKFKVTEVNPEIALQNLEEVQEFIDTNYPGENAKDQCELYKIKAQEAMTKQLEMRLLIE
B2: Ube2N (full-length) (enzyme, UniProt P61088 1-152, looked up)
chain: MAGLPRRIIKETQRLLAEPVPGIKAEPDESNARYFHVVIAGPQDSPFEGGTFKLELFLPEEYPMAAPKVRFMTKIYHPNVDKLGRICLDILKDKWSPALQIRTVLLSIQALLSAPNPDDPLANDVAEQWKTNEAQAIETARAWTRLYAMNNI
notes: also called Ubc13
B3: GST-MavCINS (domain or fragment)
chain: NAPQKYQKIKREEFNPETAEKNKIYLLEDQLVYLDIFGKVIDLGQTSDTCHRLFNAITTPFYQNYILYDEYIDPEESAEEAAMFEMGEIVKAKMKNID
B4: MavC insertion domain (MavC_(128–225)), purified (domain or fragment)
chain: B3 chain
B5:  (domain or fragment)
chain: B3 chain

Experiments:
[1] = biological target: Ubiquitin (wild type) (UniProt P0CG48 1-76)
[2] = biological target: Ub–Ube2N, transglutaminase crosslinked product (UniProt P61088 1-152; P0CG48 1-76)
[3] = biological target: GST-MavC_(1–462) (Legionella pneumophila, UniProt Q5ZTL4 1-462); assay: pull-down
[4] = biological target: B2; assay: pull-down
[5] = biological target: B2

## B1
[1]
  binding result: binds
[2]
  binding result: binds

## B2
[3]
  binding result: binds

## B3
[4]
  binding result: binds

## B4
[5]
  binding result: binds

## B5
[5]
  binding result: binds
